Experiment [1] concerns the target human ACE2 N-terminal peptidase domain (aa 19-615), monomeric (human) (UniProt Q9BYF1). The experiment in a line: BLI. Background: BLI is a label-free optical method that tracks binding on a fibre tip over time.
For experiment [2], the target named is mouse ACE2 N-terminal peptidase domain (aa 19-615) (mouse) (UniProt Q8R0I0). The experiment in a line: BLI.
The target is the same in experiment [3]. Description: cryo-EM structure.

Several values for one entry are separate records, joined by “and”; a condition that tells them apart may be missing. Identical values can stand only once.

By Kd is commonly meant a measure of binding affinity in units of concentration.

Regarding “SARS-CoV-2 Omicron BA.1 spike extracellular domain trimer (domain or fragment)”, the values for the Kd in experiment [1] and in experiment [2] were 6.4 nM and 9.1 nM, respectively. In addition, in experiment [3], the stoichiometry N (mACE2 per spike trimer) is 1 and 2.

Values taken from paper PMC9152305, “Structural and biochemical mechanism for increased infectivity and immune evasion of Omicron BA.2 variant compared to BA.1 and their possible mouse origins” (2022).
